{"sequences": {"note": "Protein sequences, listed by entry. Tags and fused reporters are not part of them.", "UniProt P03206, whole entry": "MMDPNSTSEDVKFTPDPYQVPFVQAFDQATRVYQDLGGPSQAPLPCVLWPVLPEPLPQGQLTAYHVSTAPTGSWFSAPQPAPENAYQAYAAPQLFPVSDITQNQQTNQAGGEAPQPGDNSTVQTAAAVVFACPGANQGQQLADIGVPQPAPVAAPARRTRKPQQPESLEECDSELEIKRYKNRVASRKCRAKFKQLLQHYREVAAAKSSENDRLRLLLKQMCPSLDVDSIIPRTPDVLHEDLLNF"}, "source": "PubChem BioAssay AID2234", "about": "(The Scripps Research Institute Molecular Screening Center, 2010)", "note": "This is a selection; strong and weak results do not stand in their true shares. Some salts or complexes appear as unconnected parts, following the source record. The source made the active and inactive calls. No stated cut-off is given here; in the data, active means inhibition above about 33%; inactive means the rest.", "data": [{"target": "Lytic switch protein BZLF1 (Epstein-Barr virus (strain B95-8)) (UniProt P03206)", "test": "Zta-DNA interaction blockers, Epstein-Barr virus – biochemical, fluorescence polarization, single concentration, counter-screen for EBNA-1 inhibitor project, primary screen (AID 2234)", "details": "ZTA-DNA binding, at 11 µM, stronger effect = higher value", "values": [{"smiles": "Cc1ccc(C)c(NP(C)(=O)Oc2ccccc2)c1", "note": "(stereo not drawn)", "inhibition": "inactive: 5.87%"}, {"smiles": "CP(=O)(Nc1cccc(Br)c1)Oc1ccccc1", "note": "(stereo not drawn)", "inhibition": "inactive: -1.2%"}, {"smiles": "Cc1cc(C)cc(OP(C)(=O)Nc2ccccn2)c1", "note": "(stereo not drawn)", "inhibition": "inactive: 12.3%"}, {"smiles": "CCOC(=O)c1ccc(NP(C)(=O)Oc2cc(C)cc(C)c2)cc1", "note": "(stereo not drawn)", "inhibition": "inactive: -1.35%"}, {"smiles": "Cc1cc(C)cc(OP(C)(=O)Nc2ccc(C)cc2C)c1", "note": "(stereo not drawn)", "inhibition": "inactive: 1.13%"}, {"smiles": "COc1ccccc1OP(C)(=O)Nc1cccc(Br)c1", "note": "(stereo not drawn)", "inhibition": "inactive: 3.24%"}, {"smiles": "CC1=NCCc2c1[nH]c1ccccc21.O=[N+]([O-])c1cc([N+](=O)[O-])c(O)c([N+](=O)[O-])c1", "inhibition": "inactive: -7.97%"}, {"smiles": "O=C(O)c1cccc(Nc2c([N+](=O)[O-])cc([N+](=O)[O-])cc2[N+](=O)[O-])c1", "inhibition": "inactive: 3.24%"}, {"smiles": "CP(=O)(Nc1ccc(SC(F)(F)F)cc1)Oc1ccccc1", "note": "(stereo not drawn)", "inhibition": "inactive: -8.75%"}, {"smiles": "CCCOc1ccc(NP(C)(=O)Oc2ccc(Cl)cc2)cc1", "note": "(stereo not drawn)", "inhibition": "inactive: 1.7%"}, {"smiles": "COc1ccccc1OP(C)(=O)Nc1c(C)cccc1C", "note": "(stereo not drawn)", "inhibition": "inactive: 17.1%"}, {"smiles": "CN1CCCCC1COC(=O)C1(O)c2ccccc2CCc2ccccc21", "note": "(stereo not drawn)", "inhibition": "inactive: -1.46%"}, {"smiles": "O=[N+]([O-])c1cc([N+](=O)[O-])c(Nc2nnnn2CCO)c([N+](=O)[O-])c1", "inhibition": "inactive: -3.91%"}, {"smiles": "CC1=C2N=C(C=C3N=C(C(C)=C4[N-][C@@](C)([C@@H]5N=C1[C@](C)(CCC(=O)NC[C@@H](C)OP(=O)([O-])O[C@H]1[C@@H](O)[C@@H](n6cnc7cc(C)c(C)cc76)O[C@@H]1CO)[C@H]5CC(N)=O)[C@@](C)(CC(N)=O)[C@@H]4CCC(N)=O)[C@@](C)(CC(N)=O)[C@@H]3CCC(N)=O)C(C)(C)[C@@H]2CCC(N)=O.[C-]#N.[Co+3]", "inhibition": "inactive: 1.06%"}, {"smiles": "CCOC(=O)C(CC)C1=NC(C)(C)Cc2ccccc21.O=[N+]([O-])c1cc([N+](=O)[O-])c(O)c([N+](=O)[O-])c1", "note": "(stereo not drawn)", "inhibition": "inactive: -2.23%"}, {"smiles": "Cc1nc2ccc3ccccc3c2s1.O=[N+]([O-])c1cc([N+](=O)[O-])c(O)c([N+](=O)[O-])c1", "inhibition": "inactive: 1.66%"}, {"smiles": "O=[N+]([O-])c1cc([N+](=O)[O-])c(-c2cnn(-c3ccccc3)c2)c([N+](=O)[O-])c1", "inhibition": "inactive: 3.59%"}, {"smiles": "O=[N+]([O-])c1cc([N+](=O)[O-])c(-n2nnc3ccccc32)c([N+](=O)[O-])c1", "inhibition": "inactive: 18.6%"}, {"smiles": "CP(=O)(Nc1ccccn1)Oc1ccc(Cl)cc1", "note": "(stereo not drawn)", "inhibition": "inactive: -3.95%"}, {"smiles": "CCOC(=O)c1ccc(NP(C)(=O)Oc2ccc(OC)cc2)cc1", "note": "(stereo not drawn)", "inhibition": "inactive: -11.6%"}, {"smiles": "O=[N+]([O-])c1cc([N+](=O)[O-])c(O)c([N+](=O)[O-])c1.c1ccc(Oc2ccncc2)cc1", "inhibition": "inactive: 6.77%"}, {"smiles": "CCOP(C)(=S)SCC(=O)NC(C)C(=O)O", "note": "(stereo not drawn)", "inhibition": "inactive: -1.78%"}, {"smiles": "CCc1ccc(OP(C)(=O)N2CCN(c3ccc([N+](=O)[O-])cc3)CC2)cc1", "note": "(stereo not drawn)", "inhibition": "inactive: -15.2%"}, {"smiles": "CP(=O)(NC(=O)Nc1ccccc1)Oc1ccccc1", "note": "(stereo not drawn)", "inhibition": "inactive: -4.07%"}, {"smiles": "Cc1cc(C)cc(OP(C)(=O)Nc2ccc(SC(F)(F)F)cc2)c1", "note": "(stereo not drawn)", "inhibition": "inactive: 4.32%"}, {"smiles": "Cc1cccc(C)c1OP(C)(=O)Nc1ccc(SC(F)(F)F)cc1", "note": "(stereo not drawn)", "inhibition": "inactive: -6.62%"}, {"smiles": "CP(=O)(Nc1ccc(SC(F)(F)F)cc1)Oc1ccc(Cl)cc1", "note": "(stereo not drawn)", "inhibition": "inactive: 12.9%"}, {"smiles": "CP(=O)(Oc1ccccc1)OC(c1ccccc1)C(F)(F)F", "note": "(stereo not drawn)", "inhibition": "inactive: -16.8%"}, {"smiles": "CP(=O)(Nc1ccccc1Br)Oc1ccccc1", "note": "(stereo not drawn)", "inhibition": "inactive: 4.54%"}, {"smiles": "COc1ccccc1OP(C)(=O)Nc1ccccc1", "note": "(stereo not drawn)", "inhibition": "inactive: -3.13%"}, {"smiles": "CP(=S)(Nn1cnnc1)Oc1ccccc1", "note": "(stereo not drawn)", "inhibition": "inactive: 11.7%"}, {"smiles": "Cc1cc(C)cc(OP(C)(N)=O)c1", "note": "(stereo not drawn)", "inhibition": "inactive: -9.89%"}, {"smiles": "COc1ccccc1OP(C)(=O)Nc1cc(Cl)ccc1C", "note": "(stereo not drawn)", "inhibition": "inactive: 7.51%"}, {"smiles": "COc1ccc(OP(C)(=O)Nc2cccc(F)c2)cc1", "note": "(stereo not drawn)", "inhibition": "inactive: -5.01%"}, {"smiles": "COc1ccccc1OP(C)(=O)Nc1ccc(C)cc1", "note": "(stereo not drawn)", "inhibition": "inactive: 14.2%"}, {"smiles": "Cc1ccc(NP(C)(=O)Oc2ccccc2)c(C)c1", "note": "(stereo not drawn)", "inhibition": "inactive: 0.22%"}, {"smiles": "CCOC(=O)c1ccc(NP(C)(=O)Oc2ccccc2)cc1", "note": "(stereo not drawn)", "inhibition": "inactive: -6.33%"}, {"smiles": "O=[N+]([O-])c1ccc2c(c1)C=Nc1ccccc1O2", "inhibition": "inactive: 22.4%"}, {"smiles": "CC(C)(C)c1ccc(OP(C)(=O)Nc2ccc(SC(F)(F)F)cc2)cc1", "note": "(stereo not drawn)", "inhibition": "inactive: -15.1%"}, {"smiles": "Cc1cccc(C)c1OP(C)(N)=O", "note": "(stereo not drawn)", "inhibition": "inactive: -2%"}, {"smiles": "O=[N+]([O-])c1cc([N+](=O)[O-])c(Nc2cccnc2)c([N+](=O)[O-])c1", "inhibition": "inactive: -13.9%"}, {"smiles": "CCN(CC)CCCOC(=O)C(O)(c1ccccc1)c1ccccc1", "inhibition": "inactive: -8.73%"}, {"smiles": "CP(=O)(Nc1ccccn1)Oc1ccccc1", "note": "(stereo not drawn)", "inhibition": "inactive: 15.7%"}, {"smiles": "COc1ccccc1OP(C)(=O)Nc1ccc(C)cc1C", "note": "(stereo not drawn)", "inhibition": "inactive: -4.76%"}, {"smiles": "CCc1ccc(OP(C)(=O)O)cc1", "inhibition": "inactive: -5.29%"}, {"smiles": "O=[N+]([O-])c1cc([N+](=O)[O-])c(Nc2ccccn2)c([N+](=O)[O-])c1", "inhibition": "inactive: 4.35%"}, {"smiles": "Cc1c(NP(C)(=O)Oc2ccc(C(C)C)cc2)c(=O)n(-c2ccccc2)n1C", "note": "(stereo not drawn)", "inhibition": "inactive: 10.3%"}, {"smiles": "COc1ccc(OP(C)(=O)Nc2ccccn2)cc1", "note": "(stereo not drawn)", "inhibition": "inactive: -4.44%"}, {"smiles": "CN(C)CCOC(=O)C(O)(c1ccccc1)C1CCCC1", "note": "(stereo not drawn)", "inhibition": "inactive: -0.92%"}, {"smiles": "COc1ccccc1OP(C)(=O)Nc1ccc(Br)cc1", "note": "(stereo not drawn)", "inhibition": "inactive: 6.75%"}, {"smiles": "CP(=O)(OCCOc1ccccc1)OCCOc1ccccc1", "inhibition": "inactive: -9.74%"}, {"smiles": "CP(=O)(Nc1ccc(Cl)cc1Cl)Oc1ccccc1", "note": "(stereo not drawn)", "inhibition": "inactive: 12.6%"}, {"smiles": "Cc1nc2ccc3ccccc3c2o1.O=[N+]([O-])c1cc([N+](=O)[O-])c(O)c([N+](=O)[O-])c1", "inhibition": "inactive: 13.2%"}, {"smiles": "COc1ccccc1OP(C)(=O)Nc1ccc(C)c(C)c1", "note": "(stereo not drawn)", "inhibition": "inactive: 8.79%"}, {"smiles": "COc1ccc(OP(C)(=O)Nc2ccccc2Br)cc1", "note": "(stereo not drawn)", "inhibition": "inactive: 12.4%"}, {"smiles": "Cc1cc(C)cc(OP(C)(=O)Nc2cccc(C(F)(F)F)c2)c1", "note": "(stereo not drawn)", "inhibition": "inactive: 4.61%"}, {"smiles": "CCOC(=O)c1ccc(NP(C)(=O)Oc2ccc(Cl)cc2)cc1", "note": "(stereo not drawn)", "inhibition": "inactive: 1.1%"}, {"smiles": "CP(=O)(OC12CC3CC(CC(C3)C1)C2)OC12CC3CC(CC(C3)C1)C2", "inhibition": "inactive: 5.65%"}, {"smiles": "Nc1ccc2c(ccc3cccnc32)n1.O=[N+]([O-])c1cc([N+](=O)[O-])c(O)c([N+](=O)[O-])c1", "inhibition": "inactive: -8.36%"}, {"smiles": "CN(C)C(=O)c1c([N+](=O)[O-])cc([N+](=O)[O-])cc1[N+](=O)[O-]", "inhibition": "inactive: 4.1%"}, {"smiles": "CC(C)(C)c1ccc(OP(C)(=O)O)cc1", "inhibition": "inactive: -5.92%"}, {"smiles": "COc1ccccc1OP(C)(=O)Nc1ccccc1Br", "note": "(stereo not drawn)", "inhibition": "inactive: -17.8%"}, {"smiles": "CP(=O)(Nc1ccc(Cl)cc1)Oc1ccc(F)cc1", "note": "(stereo not drawn)", "inhibition": "inactive: -3.39%"}, {"smiles": "COc1ccccc1OP(C)(=O)Nc1c(C)n(C)n(-c2ccccc2)c1=O", "note": "(stereo not drawn)", "inhibition": "inactive: -26.1%"}, {"smiles": "O=C(OCCCN1CCCC1)C(O)(c1ccccc1)C1CCCCC1", "note": "(stereo not drawn)", "inhibition": "inactive: -16.9%"}, {"smiles": "CP(=O)(Oc1ccccc1)N1CCOC1=O", "note": "(stereo not drawn)", "inhibition": "inactive: -15.1%"}, {"smiles": "CCc1ccc(OP(C)(=O)Nc2cccnc2)cc1", "note": "(stereo not drawn)", "inhibition": "inactive: -7.63%"}, {"smiles": "CCN(CC)CC(O)COC(=O)C(O)(c1ccccc1)C1CCCCC1", "note": "(stereo not drawn)", "inhibition": "inactive: -10.7%"}, {"smiles": "COc1ccc(OP(C)(=O)Nc2ccc(Br)cc2)cc1", "note": "(stereo not drawn)", "inhibition": "inactive: -12.3%"}, {"smiles": "Cc1ccccc1NP(C)(=O)Nc1ccccc1C", "inhibition": "inactive: 17.2%"}, {"smiles": "CP(=O)(Nc1ccc2c(c1)OCCO2)Oc1ccccc1", "note": "(stereo not drawn)", "inhibition": "inactive: -13.6%"}, {"smiles": "CCOP(C)(=S)SCC(=O)NC(C)(CC)C(=O)O", "note": "(stereo not drawn)", "inhibition": "inactive: -3.48%"}, {"smiles": "CP(=O)(Nc1ccc(SC(F)(F)F)cc1)Oc1ccc(F)cc1", "note": "(stereo not drawn)", "inhibition": "inactive: -19.4%"}, {"smiles": "O=[N+]([O-])c1cc([N+](=O)[O-])c(NCC2CCS(=O)(=O)C2)c([N+](=O)[O-])c1", "note": "(stereo not drawn)", "inhibition": "inactive: -15.1%"}, {"smiles": "CN(C)CCOC(=O)C(O)(c1ccccc1)C1CCCCC1", "note": "(stereo not drawn)", "inhibition": "inactive: -10.8%"}, {"smiles": "COc1ccc(NP(C)(=O)Oc2ccccc2OC)cc1", "note": "(stereo not drawn)", "inhibition": "inactive: -3.35%"}, {"smiles": "COc1ccc(OP(C)(=O)Nc2cccc(Br)c2)cc1", "note": "(stereo not drawn)", "inhibition": "inactive: -9.03%"}, {"smiles": "CP(=O)(Nc1ccccc1)Oc1ccc(F)cc1", "note": "(stereo not drawn)", "inhibition": "inactive: 3.88%"}, {"smiles": "CCCCCOc1ccc(NP(C)(=O)Oc2ccc(Cl)cc2Cl)cc1", "note": "(stereo not drawn)", "inhibition": "inactive: 0.42%"}, {"smiles": "O=[N+]([O-])c1cc([N+](=O)[O-])c(OC2CCCCC2O)c([N+](=O)[O-])c1", "note": "(stereo not drawn)", "inhibition": "inactive: -0.29%"}, {"smiles": "CCN(CC)CCCOC(=O)C(O)(c1ccccc1)C1CCCCC1", "note": "(stereo not drawn)", "inhibition": "inactive: -7.63%"}, {"smiles": "CCOC(=O)c1ccc(NP(C)(=O)Oc2ccc(F)cc2)cc1", "note": "(stereo not drawn)", "inhibition": "inactive: -12.4%"}, {"smiles": "COc1ccc(OP(C)(=O)Nc2ccc(SC(F)(F)F)cc2)cc1", "note": "(stereo not drawn)", "inhibition": "inactive: 14.3%"}, {"smiles": "COc1ccc2c(c1O)-c1c(O)c(OC)cc3c1[C@H](C2)[N+](C)(C)CC3.O=[N+]([O-])c1cc([N+](=O)[O-])c([O-])c([N+](=O)[O-])c1[O-]", "inhibition": "inactive: 7.59%"}, {"smiles": "O=C(OC1CN2CCC1CC2)c1ccc([N+](=O)[O-])cc1", "note": "(stereo not drawn)", "inhibition": "inactive: 0.27%"}, {"smiles": "O=C(OCCN1CCN(CCOCc2ccccc2)CC1)C(O)(c1ccccc1)c1ccccc1", "inhibition": "inactive: -1.59%"}, {"smiles": "CP(=O)(Nc1ccccc1F)Oc1ccccc1", "note": "(stereo not drawn)", "inhibition": "inactive: -1.31%"}, {"smiles": "CC(C)c1ccc(OP(C)(=O)Nc2ccc(SC(F)(F)F)cc2)cc1", "note": "(stereo not drawn)", "inhibition": "inactive: 5.79%"}]}]}
